# According to the supplement of paper PMC12045047:
# This is a selection; strong and weak results do not stand in their true shares.
# Tested on: primary human airway basal cells (HBEC, luciferase-transduced)
# Experiment: proliferation (luciferase bioluminescence) Z score relative to plate mean; higher = more proliferation / more cells, active = 1.96 or more
# Conditions: donor: 1; 0.5 µM; library: ENZO Libraries; 4 days
# Experimental: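 Primary human bronchial epithelial (airway basal) cells from two donors, lentivirally transduced with pHIV-Luc-ZsGreen, were seeded at 2000 cells/well in 384-well plates in FAD medium with ENZO or Prestwick library compounds and cultured for 4 days. Luciferin was then added and bioluminescence was read as a measure of cell number. Relative light units were converted to Z scores against the plate, and the mean of triplicate wells is reported.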
row,Structure (SMILES),proliferation
1,COc1ccc(C=C(C#N)C#N)cc1,inactive: -0.342

# Same assay, conditions: donor: 1; 5 µM; library: ENZO Libraries; 4 days
row,Structure (SMILES),proliferation
1,COc1ccc(C=C(C#N)C#N)cc1,inactive: -0.0696
